From patent publication US20260104399A1, “A PROCESS FOR ASSESSING BIODEGRADABILITY OF COMPLEX ORGANIC MIXTURES” (ABOCA S.P.A. SOCIETÀ AGRICOLA, priority 2022, published 2026)

Experiments:
[1] = system: microfauna of the OECD 301F ready biodegradability test; experiment: Targeted suspect screening and semi-quantitative UHPLC-qToF analysis of OECD 301F samples of mixtures C and D; conditions: in Mixture D 75 mg/L
[2] = system: microfauna of the inoculum (activated sludge and river water); experiment: Semiquantitative UHPLC-qToF evaluation (Relative Ratio, percentage of reduction) of residual main components after RBT; set-up: species or system Aspidisca cicada, Zoothamnium, Rotiferi, Euglyphia; conditions: for parent compound still present at the end of the experiment (% of original concentration): Mixture A 1000 mg/L sample; for reduction percentage: T28 vs T0; for RR at T28 (Relative Ratio): after 28 days RBT; for RR at T0 (Relative Ratio, area counts of compound / internal standard) / RR at T0 (Relative Ratio): start of RBT
[3] = system: microfauna of the inoculum (activated sludge and river water); experiment: Targeted UHPLC-qToF qualitative analysis of RBT samples of mixtures A and B; set-up: species or system Aspidisca cicada, Zoothamnium, Rotiferi, Euglyphia; conditions: Mixture A 1000 mg/L
[4] = component in Mixture A at 50 mg/L
[5] = component in Mixture A at 100 mg/L
[6] = component in Mixture A at 1000 mg/L

Row | Compound | detection on the 28th day (suspect screening) [1] | parent compound still present at the end of the experiment (% of original concentration) ([2]; 28 days) [%] | reduction percentage [2, 4] [% reduction] | RR at T28 (Relative Ratio) [2, 4] | RR at T0 (Relative Ratio, area counts of compound / internal standard) [2, 4] | reduction percentage [2, 5] [% reduction] | RR at T28 (Relative Ratio) [2, 5] | RR at T0 (Relative Ratio) [2, 5] | RR at T28 (Relative Ratio) [2, 6] | RR at T0 (Relative Ratio) [2, 6] | further results
1 | OC[C@@H]1O[C@](CO)(O[C@@H]2O[C@H](CO)[C@H](O)[C@H](O)[C@H]2O)[C@@H](O)[C@@H]1O [Sucrose (4), Sucrose] | no more detectable |  |  |  |  |  |  |  |  |  | 
2 | OC[C@@H](O)C(O[C@H]1O[C@H](CO)[C@@H](O)[C@H](O)[C@H]1O)[C@H](O)[C@@H](O)CO (stereo partly drawn) [Maltitol (2), maltitol] |  | 62 | 100 | RR at T28 0.000 | RR at T0 2.801 | 100 | RR at T28 0.000 | RR at T0 4.932 | RR at T28 4.344 | RR at T0 7.049 | degradation of the component (in words) ([2]; Mixture A, samples at 50 mg/L and 100 mg/L, 28 days): fully biodegraded; reduction percentage [2, 6]: 38% reduction
3 | CN(Cc1cc(Br)cc(Br)c1N)C1CCCCC1 [Bromhexine (3), Bromhexine, reference compound] |  | 12 | 94 | RR at T28 0.004 | RR at T0 0.064 | 88 | RR at T28 0.012 | RR at T0 0.102 | RR at T28 0.054 | RR at T0 0.432 | presence after 28 days under the RBT conditions [3]: still present after 28 days; parent compound still present at the end of the experiment ([2]; Mixture A 50 mg/L sample, 28 days): 6%; parent compound still present at the end of the experiment ([2]; Mixture A 100 mg/L sample, 28 days): 12%; reduction percentage ([2]; pure Bromhexine at 0.7 mg/L): 46%; reduction percentage ([2]; pure Bromhexine at 0.7 mg/L, listed as Bromhexins): 46% reduction; RR at T28 (Relative Ratio) ([2]; pure Bromhexine at 0.7 mg/L): RR at T28 9.542; RR at T0 (Relative Ratio) ([2]; pure Bromhexine at 0.7 mg/L): RR at T0 17.826
4 | O=c1cc(-c2ccc(O)cc2)oc2cc(O)cc(O)c12 [apigenin] | no more detectable |  |  |  |  |  |  |  |  |  | 
5 | O=C1C[C@@H](c2ccc(O[C@@H]3O[C@H](CO)[C@@H](O)[C@H](O)[C@H]3O)cc2)Oc2cc(O)ccc21 [liquiritin] | no more detectable |  |  |  |  |  |  |  |  |  | 
